Assay results taken from publication PMC12784962, “https://orcid.org/0000-0002-3633-7823 Baral Joydeep Department of Bioscience and Biotechnology, Indian Institute of Technology Kharagpur, West Midnapore 721302, West Bengal, India”.
Construct, isoform or probe ends are uncertain for at least one entry. Protein sequences can lack the tags named with them.

Target: T1, mKu WT (Mycobacterium tuberculosis) (UniProt P9WKD9)
T1 sequence (looked up, limits assumed): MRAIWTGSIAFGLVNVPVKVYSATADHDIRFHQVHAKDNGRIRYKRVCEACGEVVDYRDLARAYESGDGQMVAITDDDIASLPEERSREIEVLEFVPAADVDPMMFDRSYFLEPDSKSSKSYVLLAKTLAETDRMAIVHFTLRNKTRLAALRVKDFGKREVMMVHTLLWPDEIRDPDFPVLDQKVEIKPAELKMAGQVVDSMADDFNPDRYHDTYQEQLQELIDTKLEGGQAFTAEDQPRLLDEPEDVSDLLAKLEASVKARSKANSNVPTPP
Assay: cryo-EM
Conditions: 5 uM mKu dimer and 5 uM DNA, supercomplex; cryo-EM: 4 C, 30 min; recombinant protein; protein details: affinity tag (IMAC, pET16b)

CCCCCCTGTCGCCGCCGACGTCTGTGATATGGCGTTGTTG (double strand) [linear 40-bp dsDNA]
binding result: binds
